Measurements published in patent publication US5157032A, “Mixed ligand complexes and uses thereof as binding agents and probes to DNA” (The Trustees of Columbia University In The City of New York, priority 1990, dated 1992).

How the values were obtained:
[1] = Emission and excited-state lifetime (flash photolysis); assay type: physicochemical
calf thymus DNA = assay: Spectroscopic properties (absorption, emission, lifetime) on binding to calf thymus DNA; parameters: key to Emission λmax: b: Nonemissive complexes; conditions: for Absorption λmax bound / Emission λmax bound: bound to DNA; for Absorption Δλ / Emission Δλ: bound vs free; for Absorption λmax free / Emission λmax free / εfree / Emission Lifetime free: free complex; for Emission Lifetime free / Emission Lifetime bound, first component (1) / Emission Lifetime bound, second component (2): 20° C., air saturated; for Emission Lifetime bound, first component (1) / Emission Lifetime bound, second component (2): with DNA
Method: Instrumentation: NMR spectra were recorded on a Varian VXR-300MHz spectormeter. FABS were performed using a VG Analytical 7070EQ Mas Spectrometer (78), and elemental analyses were done by Galbraith Laboratories in Nashville, Tenn. UV-Visible absorbance spectal were recorded on a Varian CARY-219 absorbance spectorphotometer. Extinction coefficients for the compounds were determined versus ruthenium concentrations obtained by atomic absorption spectroscopy with known ruthenium standards. [Ru(bpy)3 ]Cl2 solutions were also employed for these determinations as an internal standard. A varian AA-875 atomic absorption spectrophotometer was used for these determinations.
Emission spectra were measured on a Perkin-Elmer LS-5 fluorescence spectrometer. The samples were excited at their corresponding isosbestic points. All the measurements were made at 20° C. in a thermostatted cuvette holder with 3 nm entrance slit and 10 nm exit slit. Ruthenium solutions employed were 7 μM in concentration and claf thymus DNA was added to a ration of 40:1 nucleotide/metal; ruthenuim-DNA soltuions were allowed to incubate for 15 minutes before enhanced spectra were recorded. The emission enhancement factors were measured by comparing the intensitites at the emission spectral mixima in the absence ad presence of DNA, under similar conditions.
The limunescence lifetime measurements were done on a PRA SPC (single photon countining) spectometer with some minor modifications. The samples were excited with a nitrogen filled tnynratron gated flash lamp and the data were collected using a Tracor Northern 1710 multichannel analyser. The data were then transferred to a PDP-11/03 computer and deconvoluted with PRA software. […] concentrated solution of DNA (5mM DNA-phosphate) in buffer was added to a solution of the metal complex (4 μM) in buffer and allowed to equilibrate. Lifetimes of the samples were measured 0.5 hr after the metal complexes were mixed with DNA. All measurements were made at 20° C. and under air saturated conditions.
Furthermore, for all the complexes, this electronic transition is perturbed on binding to DNA.

| Compound | excited-state lifetime ([1]; flash photolysis) | emission 350 to 800 nm ([1]; pH 1-11, various solvents, 77K) | Emission λmax (calf thymus DNA) | Absorption λmax bound (calf thymus DNA) | Absorption Δλ (calf thymus DNA) | Absorption λmax free (calf thymus DNA) | Emission λmax bound (calf thymus DNA) | Emission Δλ (calf thymus DNA) | Emission λmax free (calf thymus DNA) | εfree (calf thymus DNA) | Emission Lifetime free (calf thymus DNA) | Emission Lifetime bound, first component (1) (calf thymus DNA) | Emission Lifetime bound, second component (2) (calf thymus DNA) |
| --- | --- | --- | --- | --- | --- | --- | --- | --- | --- | --- | --- | --- | --- |
| N=C1C(=N)c2ccccc2-c2ccccc21.N=C1C(=N)c2ccccc2-c2ccccc21.N=C1C(=N)c2ccccc2-c2ccccc21.[Ru+2] [Ru(phi)3^2+] | ≤ 6 ns | No emission was observed |  |  |  |  |  |  |  |  |  |  |  |
| O=[N+]([O-])c1cc2cccnc2c2ncccc12.O=[N+]([O-])c1cc2cccnc2c2ncccc12.O=[N+]([O-])c1cc2cccnc2c2ncccc12.[Ru+2] [Ru(5-NO2phen)3^2+, [Ru(5-nitrophenanthroline)3)]Cl2] |  |  | b | 454 nm | 4 nm | 450 nm |  |  |  |  |  |  |  |
| [Ru].c1cnc2c(c1)ccc1cccnc12.c1cnc2c(c1)ccc1cccnc12.c1cnc2c(c1)ccc1cccnc12 [Ru(phen)3^2+, reference compound] |  |  |  | 445 nm | 2 nm | 443 nm | 593 nm | 2 nm | 591 nm | 20,000 M-1 cm-1 | 530 nanoseconds | 630 ± 70 nanoseconds | 2300 ± 620 nanoseconds |
| [Ru+2].c1ccc(-c2ccnc3c2ccc2c(-c4ccccc4)ccnc23)cc1.c1cnc2c(c1)ccc1cccnc12.c1cnc2c(c1)ccc1cccnc12 [Ru(phen)2 (DIP)^2+] |  |  |  | 432 nm | 5 nm | 427 nm | 606 nm | -8 nm | 614 nm | 20,550 M-1 cm-1 | 970 nanoseconds | 1160 ± 30 nanoseconds | 5290 ± 80 nanoseconds |
| N=C1C(=N)c2ccccc2-c2ccccc21.N=C1C(=N)c2ccccc2-c2ccccc21.[Ru+2].c1ccc(-c2ccccn2)nc1 [Ru(phi)2 (bpy)^2+] |  |  | b | 582 nm | 10 nm | 572 nm |  |  |  | 75,300 M-1 cm-1 |  |  |  |
| [Ru+2].c1ccc(-c2ccnc3c2ccc2c(-c4ccccc4)ccnc23)cc1.c1ccc(-c2ccnc3c2ccc2c(-c4ccccc4)ccnc23)cc1.c1cnc2c(c1)ccc1cccnc12 [Ru(DIP)2 (phen)^2+] |  |  |  | 439 nm | 6 nm | 433 nm | 621 nm | +5 nm | 616 nm | 29,400 M-1 cm-1 | 990 nanoseconds | 116 ± 40 nanoseconds | 5100 ± 430 nanoseconds |
| [Ru+2].c1ccc(-c2ccccn2)nc1.c1ccc(-c2ccccn2)nc1.c1ccc(-c2ccnc3c2ccc2c(-c4ccccc4)ccnc23)cc1 [Ru(bpy)2 (DIP)^2+] |  |  |  | 454 nm | 0 nm | 454 nm | 621 nm | 6 nm | 615 nm | 18,600 M-1 cm-1 | 700 nanoseconds | 640 ± 40 nanoseconds | 4700 ± 600 nanoseconds |
| N=C1C(=N)c2ccccc2-c2ccccc21.[Ru+2].c1cnc2c(c1)ccc1cccnc12.c1cnc2c(c1)ccc1cccnc12 [Ru(phen)2 (phi)^2+] |  |  | b | 544 nm | 9 nm | 535 nm |  |  |  | 51,900 M-1 cm-1 |  |  |  |
| O=C1c2cccnc2-c2ncccc21.[Ru+2].c1cnc2c(c1)ccc1cccnc12.c1cnc2c(c1)ccc1cccnc12 [Ru(phen)2 (flone)^2+, [Ru(phen)2 (4,5-diazafuorene-9-one)]Cl2] |  |  | b | 436 nm | 0 nm | 436 nm |  |  |  | 18,800 M-1 cm-1 |  |  |  |
